Anti-infective test results gathered from many reports (values: NIAID ChemDB through PubChem).

Shared fields: cytotoxicity tests; cell line: C8166; endpoint: CC50

An empty or dashed field is not shown. CCn: concentration that lowers growth or viability of the cells by n%. Lines come from different laboratories, so protocols vary.

| smiles | method | result |
|---|---|---|
| CN(Cc1nc2ccccc2[nH]1)Cc1ncccc1CCCNC(=O)N(C)C | MTT | >10 µM |
| CCCCOP(=O)(OCCCC)OC[C@H]1O[C@@H](n2cc(C)c(=O)[nH]c2=O)C[C@@H]1N=[N+]=[N-] | - | >100 µM |
| C=C1CC[C@@H]2[C@](C)(CO)[C@H](O)CC[C@@]2(C)[C@@H]1CC(OC(=O)/C=C/c1cc2c(cc1[N+](=O)[O-])OCO2)C1CCOC1=O | MTT | 4.765 µM |
| CCCCCCCCC(=O)O[C@@]12[C@H](OC(=O)/C=C/c3ccc(Cl)cc3)[C@@H](C)[C@@]3(O)[C@@H](C=C(CO)C[C@]4(O)C(=O)C(C)=C[C@@H]34)[C@@H]1C2(C)C | MTT | 33.5 µM |
| O=[N+]([O-])c1cc(S(=O)(=O)Oc2ccc(N=Nc3ccc(N=Nc4ccc(OS(=O)(=O)c5ccc(Cl)c([N+](=O)[O-])c5)c5ncccc45)cc3)c3cccnc23)ccc1Cl | MTT | 13.14 µg/mL |
| C/C(=N\NC(=O)c1ccccc1)c1cn(S(=O)(=O)c2ccc(C)cc2)c2ccc(C#N)cc12 | MTT | >200 µg/mL |
| CC(=O)OC[C@@H]1OC(Oc2ccc(C(=O)/C=C/c3ccc(O)c(O)c3)c(O)c2O)[C@@H](O)[C@H](OC(C)=O)[C@H]1OC(C)=O | - | 250 µM |
| COC(OC)c1cc(=O)n(C)c(=O)n1C | - | 1400 µM |
| C=C1CC[C@H]2[C@@](C)(CC/C(=N\OC(=O)c3ccc(Cl)cc3)[C@@]2(C)CO)[C@@H]1/C=C/C1=CCOC1=O | MTT | 34.7 µM |
| CC(=O)Nc1ccc(S(=O)(=O)Oc2ccc(N=Nc3ccc(N=Nc4ccc(OS(=O)(=O)c5ccc(NC(C)=O)cc5)c5ncccc45)cc3)c3cccnc23)cc1 | MTT | 37.69 µg/mL |
| O=C(N/N=C/c1cn(S(=O)(=O)c2ccc(Cl)c([N+](=O)[O-])c2)c2ccccc12)c1ccccc1 | MTT | 1.77 µg/mL |
| CN(Cc1nc2ccccc2[nH]1)Cc1ncccc1CCCN | MTT | >10 µM |
| C/C(=N\NC(=O)c1ccccc1)c1cn(S(=O)(=O)c2ccc(C)cc2)c2ccc([N+](=O)[O-])cc12 | MTT | >200 µg/mL |
| CCN1c2ncc(CCc3ccccc3)cc2C(=O)N(C)c2ccc(Cl)nc21 | - | >60 µM |
| C/C(=N\NC(=O)c1ccccc1)c1cn(S(=O)(=O)c2ccc(C)cc2)c2ccccc12 | MTT | 8.79 µg/mL |
| COC(=O)CCc1cccnc1CN(C)Cc1nc2ccccc2[nH]1 | MTT | >10 µM |
| C/C(=N\NC(=O)c1ccccc1)c1cn(S(=O)(=O)c2ccccc2)c2cc(C)ccc12 | MTT | >200 µg/mL |
| CCCCOP(=O)(OCCCC)OC[C@H]1O[C@@H](n2cc(C)c(=O)[nH]c2=O)C[C@@H]1OS(C)(=O)=O | - | >100 µM |
| CN1CCN(c2ccnc3nc(CN(CCCCN)Cc4c(Cl)cccc4[N+](=O)[O-])[nH]c23)CC1 | MTT | >10 µM |
| O=[N+]([O-])c1ccc(S(=O)(=O)Oc2ccc(N=Nc3ccc(N=Nc4ccc(OS(=O)(=O)c5ccc([N+](=O)[O-])cc5)c5ncccc45)cc3)c3cccnc23)cc1 | MTT | 40.36 µg/mL |
| CN(Cc1nc2ccccc2n1C(=O)OC(C)(C)C)C1CCCc2cccnc21 | MTT | 10 µM |
| CCN1c2ncc(CCc3cccc(NC(N)=O)c3)cc2C(=O)N(C)c2ccc(Cl)nc21 | - | >60 µM |
| CCCOP(=O)(OCCC)OC[C@H]1O[C@@H](n2cc(C)c(=O)[nH]c2=O)C[C@@H]1O | - | >100 µM |
| C/C(=N\NC(=O)c1ccccc1)c1cn(S(=O)(=O)c2ccc(C)cc2)c2cc(C)ccc12 | MTT | >200 µg/mL |
| CCCOP(=O)(OCCC)OC[C@H]1O[C@@H](n2cc(C)c(=O)[nH]c2=O)C[C@@H]1OCC | - | >100 µM |
| CCCCCCCCC(=O)O[C@@H]1[C@@H](C)[C@@]2(O)[C@@H](C=C(CO)C[C@]3(O)C(=O)C(C)=C[C@@H]23)[C@@H]2C(C)(C)[C@]12OC(=O)CCCCCCCC | MTT | 107 µM |
| Cc1ccc2c(/C=N/NC(=O)c3ccccc3)cn(S(=O)(=O)c3ccc(Cl)cc3)c2c1 | MTT | 0.68 µg/mL |
| Oc1ccc(N=Nc2ccc(N=Nc3ccc(O)c4ncccc34)cc2)c2cccnc12 | MTT | 8.51 µg/mL |
| Cn1c(C=O)cc(=O)n(C)c1=O | - | 300 µM |
| COc1cccnc1CN(CCCCN)Cc1nc2nccc(N3CCN(C)CC3)c2[nH]1 | MTT | >10 µM |
| CC/C=C\C/C=C\C/C=C\C/C=C\C/C=C\C/C=C\CCC(=O)O[C@@H]1[C@@H](C)[C@@]2(O)[C@@H](C=C(CO)C[C@]3(O)C(=O)C(C)=C[C@@H]23)[C@@H]2C(C)(C)[C@]12OC(=O)CCC | MTT | 26.7 µM |
| C=C1CC[C@@H]2[C@](C)(CO)[C@H](O)CC[C@@]2(C)[C@@H]1C/C=C1/C(=O)OC[C@H]1O | MTT | 15.2 µM |
| COc1cc(/C=C/C(=O)O[C@@H]2[C@@H](C)[C@@]3(O)[C@@H](C=C(CO)C[C@]4(O)C(=O)C(C)=C[C@@H]34)[C@@H]3C(C)(C)[C@]23OC(C)=O)ccc1O | MTT | 97.47 µM |
| CCCCOP(=O)(OCCCC)OC[C@H]1O[C@@H](n2cc(C)c(=O)[nH]c2=O)C[C@@H]1O | - | >100 µM |
| C=C1CC[C@@H]2[C@](C)(CO)[C@H](O)CC[C@@]2(C)[C@@H]1CC(OC(=O)/C=C/c1ccc2c(c1)OCO2)C1CCOC1=O | MTT | 4.715 µM |
| Cc1ccc(C(O)c2cc(=O)n(C)c(=O)n2C)o1 | - | 400 µM |
| Cc1ccc2c(/C=N/NC(=O)c3ccccc3)cn(S(=O)(=O)c3cccc([N+](=O)[O-])c3)c2c1 | MTT | 119 µg/mL |

Repeating the first 4 entries:

CN(Cc1nc2ccccc2[nH]1)Cc1ncccc1CCCNC(=O)N(C)C ; method: MTT ; result: >10 µM
CCCCOP(=O)(OCCCC)OC[C@H]1O[C@@H](n2cc(C)c(=O)[nH]c2=O)C[C@@H]1N=[N+]=[N-] ; result: >100 µM
C=C1CC[C@@H]2[C@](C)(CO)[C@H](O)CC[C@@]2(C)[C@@H]1CC(OC(=O)/C=C/c1cc2c(cc1[N+](=O)[O-])OCO2)C1CCOC1=O ; method: MTT ; result: 4.765 µM
CCCCCCCCC(=O)O[C@@]12[C@H](OC(=O)/C=C/c3ccc(Cl)cc3)[C@@H](C)[C@@]3(O)[C@@H](C=C(CO)C[C@]4(O)C(=O)C(C)=C[C@@H]34)[C@@H]1C2(C)C ; method: MTT ; result: 33.5 µM